Data as given in PubChem BioAssay AID504761 (Drosophila RNAi Screening Center, 2011)
In all, the deposit lists about 22,000 reagents; below is a random part of those that have a named target and a result. In the full data, 116 (0.52%) were called active. 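Calls depend on retest data that are not deposited; infection was ranked per plate without normalising between plates; the unit of the infection score is not given.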 The raw values are shown without normalisation. The numbers tell different reagents against one gene apart. Further read-outs or replicates are left out here. Reagent sequences are not shown. Not stated in the record: the amount of reagent, the time to read-out.

- Purpose: 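Genome-wide fly cell screen for genes dengue virus requires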 (primary screen)
- System: D.Mel-2 cells from Drosophila
- Reagent: long dsRNA against Drosophila genes
- Conditions: infection with dengue virus type 2; dose and infection time not stated
- Measurement: 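Per well on two replicate plates, imaging gave the percent of cells positive for viral envelope protein, ranked by infection, and a nuclear count of cells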
- Scale: infection score: higher = more virus-infected cells; cell count: higher = more cells in the well
- Rule for the call: 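Low infection ranks in the two replicates (chance level up to 0.065) followed by a retest with a 1.5-fold or larger significant decrease, p below 0.05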
- Calls: active = confirmed: knock-down lowers infection; inactive = not picked or not confirmed

After knock-down of HLH54F the results were infection score, replicate 1 = 11.8; cell count, replicate 1 = 6624; inactive.
With knock-down of CG13084, the screen gave infection score, replicate 1 = 25.5; cell count, replicate 1 = 5490; inactive.
Depletion of CG11334 #1 came out at: infection score, replicate 1 = 0.84; cell count, replicate 1 = 5854; inactive.
Against CG11334 #2, the values are infection score, replicate 1 = 4.6; cell count, replicate 1 = 6800; inactive.
After knock-down of CG31867, the screen gave infection score, replicate 1 = 10.5; cell count, replicate 1 = 6176; inactive.
For CG32563 #1 the deposit lists infection score, replicate 1 = 16; cell count, replicate 1 = 5486; inactive.
After knock-down of CG32563 #2 the results were infection score, replicate 1 = 5.28; cell count, replicate 1 = 6423; inactive.
aspr #1 scored infection score, replicate 1 = 4.63; cell count, replicate 1 = 6156; inactive.
aspr #2 gave infection score, replicate 1 = 2.41; cell count, replicate 1 = 5800; inactive.
With knock-down of CG8042 #1 the results were infection score, replicate 1 = 11.9; cell count, replicate 1 = 5945; inactive.
CG8042 #2 gave infection score, replicate 1 = 11.1; cell count, replicate 1 = 6654; inactive.
Against CG34443 the deposit lists infection score, replicate 1 = 14.3; cell count, replicate 1 = 5652; inactive.
CG12523 #1 scored infection score, replicate 1 = 16.6; cell count, replicate 1 = 6079; inactive.
Knock-down of CG12523 #2 came out at: infection score, replicate 1 = 2.91; cell count, replicate 1 = 6355; inactive.
Knock-down of Vps26 #1 resulted in: infection score, replicate 1 = 1.52; cell count, replicate 1 = 5272; inactive.
Vps26 #2 showed infection score, replicate 1 = 4.8; cell count, replicate 1 = 5724; inactive.
Against SmF #1 the deposit lists infection score, replicate 1 = 35.9; cell count, replicate 1 = 5334; inactive.
After knock-down of SmF #2, the screen gave infection score, replicate 1 = 9.21; cell count, replicate 1 = 5917; inactive.
Silencing of Srp54k gave: infection score, replicate 1 = 0.23; cell count, replicate 1 = 6017; inactive.
After knock-down of CG33468 the results were infection score, replicate 1 = 0.93; cell count, replicate 1 = 6327; inactive.
After knock-down of CG14568, the screen gave infection score, replicate 1 = 4.27; cell count, replicate 1 = 6037; inactive.
After knock-down of Lint-1 #1 the results were infection score, replicate 1 = 0.99; cell count, replicate 1 = 5679; inactive.
Silencing of Lint-1 #2 gave: infection score, replicate 1 = 17; cell count, replicate 1 = 5513; inactive.
holn1 #1 showed infection score, replicate 1 = 16.9; cell count, replicate 1 = 6626; inactive.
With knock-down of holn1 #2 the results were infection score, replicate 1 = 3.03; cell count, replicate 1 = 6231; inactive.
Knock-down of Setx came out at: infection score, replicate 1 = 3.23; cell count, replicate 1 = 5515; inactive.
Art1 scored infection score, replicate 1 = 15.1; cell count, replicate 1 = 5911; inactive.

Part of the list above, reformatted.
Target gene	reagent no.	infection score, replicate 1	cell count, replicate 1	Call
Vps26	1	1.52	5272	inactive
Vps26	2	4.8	5724	inactive
SmF	1	35.9	5334	inactive
